Tested on: Alanine-aminopeptidase
Assay: GRAM identification with impregnated bottle brush
Type: cell-based, Gram-negative bacteria
Text: According to a representative example, the GRAM identification process uses a substrate based on aminobenzene or a derivative thereof, such as DiMethyl-paraPhenyleneDiamine (DMpPD). In the example which follows, the substrate consists of Alanine-Dimethyl-paraPhenyleneDiamine (AlaDMpPD).
It functions as follows. Enzymatic hydrolysis causes release of the DMpPD group. Next, the DMPD binds with α-naphthol (or a derivative) by oxidative coupling facilitated by an oxidizing agent, potassium ferricyanide (K3Fe(CN)6). This then causes formation of a violet-gray complex.
Another device has been defined, which is even more specific in Gram identification and which can also be used with blood agars of Columbia type. It consists of:
a medium consisting of a blood agar of Columbia type (with or without AlaDMpPD), and
a reaction mixture which impregnates a bottle brush and which is constituted on the basis of α-naphthol, potassium ferricyanide and AlaDMpPD and then dried.
This reaction mixture contained in the bottle brush was further improved by adding a step of drying the bottle brushes, which facilitates their subsequent manipulation.
The exact composition is as follows:
for the agar, presence or absence of AlaDMpPD at 0.075 gram per liter (g/l), and
α-naphthol from 0.01 to 5 g/l, preferably from 0.1 to 1 g/l, and for example 0.5 g/l,
potassium ferricyanide from 0.01 to 5 g/l, preferably from 0.1 to 1 g/l, and for example 0.5 g/l, and
AlaDMpPD from 0.01 to 5 g/l, preferably from 0.1 to 1 g/l, and for example 0.35 g/l.
The results obtained in terms of sensitivity and specificity are thus the best obtained. In this case, the detection of the reaction is not instantaneous. It takes 15 to 30 seconds (s) to observe the appearance of any coloration, this being the time required for hydrolysis of the substrate by the bacterial aminopeptidase.
Sixty-one strains on different media such as: Polyvitex chocolate agar (registered trademark), CPS ID2 medium (registered trademark), TSA +/− blood and Columbia +/− blood were tested with bottle brushes impregnated with α-naphthol, potassium ferricyanide and AlaDMpPD and then dried.
To further improve the reaction time, a reaction activator is incorporated into the medium.
This small amount corresponds to a concentration of from 0.01 to 0.5 g/l, preferably from 0.05 to 0.1 g/l, and for example 0.075 g/l.
According to one embodiment, it is also possible to add a binder to the bottle brush. The addition of a binder makes it possible both to gather together the fibers in the head of the bottle brush and to limit the release of products present on the bottle brush into the inoculum suspension. Such a binder can consist of PolyVinylPyrrolidone (PVP), which in fact makes it possible not only to satisfy the above criteria but also to substantially increase the specificity. In the composition described above with the concentrations, the PVP is introduced into the constituents of the viscose head of the bottle brush in a concentration of from 1 to 50 g/l, preferably from 10 to 25 g/l, and for example 15 g/l.
An evaluation of this medium was thus carried out on one hundred and thirty-three (133) strains divided among the following species.

Substance: Alanine-Dimethyl-paraPhenyleneDiamine [AlaDMpPD]
- Gram-negative bacteria detected between 0 and 10 s: About 90%
- Sensitivity (133 strains, bottle brush with α-naphthol, potassium ferricyanide, AlaDMpPD): 93%
- false positives, number of strains (C. ulcerans, of 2 strains): 2
- false positives, number of strains (E. faecalis, of five (5) strains): 1
- false negatives, number of strains (H. influenzae, of two (2) strains): 1
- false negatives, number of strains (P. fluorescens, of five (5) strains): 2
- false positives, number of strains (S. agalactiae, of four (4) strains): 2
- false positives, number of strains (S. pyogenes, of 3 strains): 3
- result of Gram identification (the strain of C. guilliermondii): false positives
- result of Gram identification (the strain of C. parapsilosis): false positives

— patent US6340573B1, “Chromogenic substrates for detecting bacterial hydrolases” (Bio Merieux, priority 1998, dated 2002)
